{"source": "patent US20220072101A1", "about": "“HARNESSING INFLAMMATION TO TREAT NEURODEVELOPMENTAL DISORDERS” (President and Fellows of Harvard College, priority 2019, published 2022)", "key": {"[1]": {"tested_on": "MIA offspring", "experiment": "Three-chamber social approach assay in PBS and MIA offspring", "format": "in vivo, mouse", "experimental": "Adult male mice were assayed for sociability using a three-chamber social approach assay. The arena was constructed of white acrylic (50 cm×35 cm×30 cm). Wire cups (Spectrum Diversified®) were placed in the back left and right corner of the arena beneath water-filled 1 L bottles (Nalgene®). On Day 0, mice were habituated to the arena for 10 min. Immediately following habituation, mice were singly housed. On Day 1 (Pre), mice were placed in the center of the arena and allowed to freely explore. Following 10 min, mice were confined to the center of the arena. An inanimate object (rubber stopper) or a male conspecific were placed beneath the wire cups. Placement of the inanimate object and social target were alternated. […] Sociability was defined as interaction time with the social target divided by total interaction time and expressed as a percentage. […]\nAdult male mice were assayed for sociability using a three-chamber social approach assay. […] Sociability was defined as interaction time with the social target divided by total interaction time and expressed as a percentage. […]\nAdult male Vgat-Cre MIA offspring were bilaterally injected with virus encoding the inhibitory DREADD receptor fused to mCherry into the vLPO. […] For experiments assaying the effect of CNO and LPS injection in Vgat-Cre PBS and MIA offspring that have not undergone surgery, baseline sociability was assessed on day 1. […]"}, "[2]": {"experiment": "Tracking of body temperature (Anipill) after LPS injection", "format": "in vivo, mouse", "settings": "for increase in body temperature: LPS 50 μg/kg i.p., ˜4-5 hours after the treatment"}}, "note": "“Also recorded” adds a separate entry of the source."}
{"substance": "lipopolysaccharide [LPS]", "values": [{"measurement": "total distance traveled and total interaction time", "setting": "[1]; LPS injection into i.c.v. blocking antibody-pretreated animals", "value": "reduced total distance traveled without affecting total interaction time"}, {"measurement": "overall activity (total investigation time and total distance traveled)", "setting": "[1]; MIA offspring injected with LPS vs vehicle-treated groups", "value": "did not display changes in overall activity"}, {"measurement": "changes in body temperature", "setting": "[2]; MIA animals, LPS i.p.", "value": "failed to induce changes in body temperature in MIA animals; also recorded: did not induce changes in body temperature in MIA animals"}, {"measurement": "increase in body temperature", "setting": "[2]; PBS offspring", "value": "0.5-1.0 0 C"}, {"measurement": "increase in body temperature", "setting": "[2]; control animals (offspring of PBS-injected mothers)", "value": "0.5-1.0 °C"}]}
